Reference: paper PMC10150359 (Journal of Medicinal Chemistry, 2023)

Legend:
[1] = test system: EBOV-GP-Pseudotype Virus (pEBOV); details: CC50 HeLa / EC50 pEBOV
[2] = test system: wild-type Zaire EBOV Mayinga 1976 strain (EBOV May); experiment: Antiviral activity against replicative EBOV in Vero E6 cells (immunofocus assay)

SMILES	SI (pEBOV) (CC50/EC50) [1]	SI (CC50/EC50), replicative EBOV [2]
O=C(CCNCCN1CCN(Cc2ccccc2)CC1)NN(c1ccccc1)c1ccccc1 [Compound 13, 3-((2-(4-Benzylpiperazin-1-yl)ethyl)amino)-N′,N′-diphenylpropanehydrazide]	274	13.1
O=C(CCNCCC1CCN(Cc2ccccc2)CC1)NN(c1ccccc1)c1ccccc1 [Compound 11, 3-((2-(1-Benzylpiperidin-4-yl)ethyl)amino)-N′,N′-diphenylpropanehydrazide]	115	31.5
